The record followed here is US5968910A, “Compositions containing two or three inhibitors of different HIV reverse transcriptases” (priority 1994, dated 1999).

Where “and” joins values, the source holds several entries; their conditions need not be identical. Equal entries are not always repeated. Entries after “also recorded” stand apart in the source; their conditions may differ.

This series relates to reverse transcriptase of mutant HIV-1 strains. In words: Characterization of RT mutations of mutant HIV-1 strains selected under the compounds (PCR, sequencing). The series is classed as cell-based.
Where [1] appears, read: selection concentration not stated.

In the case of `CC1=C(C(=O)Nc2ccc(Cl)c(C(=O)OC(C)C)c2)SCCO1` [Compound A], under setting [1], the “Amino acid mutation in RT selected” value was “Glu→Lys”, the “Amino acid position of RT mutation selected” value is reported as 138 and the “Codon change in RT selected” value is recorded as “GAG→AAG”.

With `CC(C)OC(=O)c1cc(NC(=S)OC(C)C)ccc1Cl` [Compound B], under setting [1], the “Amino acid mutation in RT selected” value is “substitution of Lys (AAA) by Glu (GAA)”, the “Amino acid position of RT mutation selected” value came to 101 and the “Codon change in RT selected” value is “AAA→GAA”.

On to `Cc1occc1C(=S)Nc1ccc(Cl)c(C(=O)OC2CCCCC2)c1` [Compound III], for which, under “selected at 0.1 μg/ml”, the “Amino acid mutation in RT selected” value is “Lys→Asn”, the “Amino acid position of RT mutation selected” value came to 103 and the “Codon change in RT selected” value is listed as “AAA→AAC”.

Regarding `Cc1occc1C(=S)Nc1ccc(Cl)c(C(=O)OCC(C)C)c1` [Compound II], for the setting “selected at 0.1 μg/ml”, the “Amino acid mutation in RT selected” value is on record as “Leu→Ile”, the “Amino acid position of RT mutation selected” value is reported as 100 and the “Codon change in RT selected” value is recorded as “TTA→ATA”.

Consider `Cc1occc1C(=S)Nc1ccc(Cl)c(C(=O)OC2CCCC2)c1` [Compound IV], for which, for the setting “selected at 0.1 μg/ml”, the “Amino acid mutation in RT selected” value is 103 Lys→Thr and Lys→Thr; the “Amino acid position of RT mutation selected” value was determined as 103; the “Codon change in RT selected” value is recorded as “AAA→ACA”.

`Cc1occc1C(=S)Nc1ccc(Cl)c(C=NOC(C)(C)C)c1` [Compound I]: where the note is “selected at 0.1 μg/ml”, the “Amino acid mutation in RT selected” value is recorded as “Lys→Asn”, the “Amino acid position of RT mutation selected” value stood at 103 and the “Codon change in RT selected” value is listed as “AAA→AAC”.

Turning to `O=C(OC1CCCCC1)c1cc(NC(=S)c2ccsc2)ccc1Cl` [Compound V], for the setting “selected at 0.1 μg/ml”, the “Amino acid mutation in RT selected” value is 101-Lys→Ile and 141-Gly→Glu and Lys→Ile and Gly→Glu; the “Amino acid position of RT mutation selected” value is 101 and 141; the “Codon change in RT selected” value is “AAA→ATA; also recorded: GGG→GAG”. In addition, where the note is “selected at 0.5 μg/ml”, the “Amino acid mutation in RT selected” value was “Lys→Asn”, the “Amino acid position of RT mutation selected” value is given as 103 and the “Codon change in RT selected” value is on record as “AAA→AAC”.
